Columns and labels:
[1] = tested on: HIVpro1, HIVpro2, LTR4 and Htel DNA G4s; experiment: FRET melting assay, four DNA G4s together; assay type: binding; conditions: average of the four ratios ΔT1/2 (+10µM ds26)/ΔT1/2 (No ds26)
[2] = tested on: rLTR4-3′Cy5 (parallel RNA G4); experiment: Ligand-induced fluorescence quenching assay (FQA), rLTR4-3′Cy5; assay type: binding, HIV-1; conditions: Ka (+10µM ds26)/Ka (No ds26)
Procedure: (§1) Cy5 labelled oligonucleotides were purchased lyophilized and RP-cartridge purified from Eurogentec (Kanaka Eurogentec, Seraing, Belgium). The ligand-induced fluorescence quenching assay was conducted as previously described.[47] A Stratagene Mx3005P instrument was used to carry out the assay in 96-well plates. The filters for excitation and emission were set at 635 nm and 665 nm, respectively. The gain was used at 8×. The labeled oligonucleotide was used at 10 nM, and the buffer was 10 mM lithium cacodylate (pH 7.2), 10 mM KCl, and 90 mM LiCl in a final volume of 50 μL. The oligonucleotide was heated at 90 °C for 5 min and put in ice to anneal. […] The instrument was programmed to heat the plate for 10 min at 25 °C and measure the fluorescence after 1 min for 5 cycles. The fluorescence of each sample was normalized, and the fluorescence of the ligand alone was subtracted.
(§2) We then addressed the binding of the DBA series to the rLTR4 RNA G4. […] We have therefore used a ligand-induced fluorescence quenching assay (FQA) to analyse the interaction of the DBAs with either 5′ or 3′ fluorescently labelled RNAs (Fig. S8). […] To conduct a fluorescence quenching experiment, a CY5 fluorophore is attached on the 3′ or 5′ end of the RNA. […] Thus, upon interaction of the ligand with the G-quartet, the ligand induces the quenching of the fluorescence emission. […]

[3] = tested on: rLTR4-5′Cy5 (parallel RNA G4); experiment: Ligand-induced fluorescence quenching assay (FQA), rLTR4-5′Cy5; assay type: binding, HIV-1; conditions: Ka (+10µM ds26)/Ka (No ds26)
Procedure: as §1, §2

COc1ccc2c(ccc3c2cc2c4ccc(OC)cc4ccc2[n+]3-c2ccc([N+](=O)[O-])cc2)c1 [DBA4]
Specificity Index (FRET melting) [1]: 0.8 | Specificity Index rLTR4-3′Cy5 FQA [2]: 0.6 | Specificity Index rLTR4-5′Cy5 FQA [3]: 0.5
